Data reported in patent US20230287088A1 (BIONTECH, published 2023).

Biological target: T1, Mouse-Fc-tagged SARS-CoV2 S1-RBD (Sino Biologicals) recombinant protein (SARS-CoV-2, UniProt P0DTC2 319-541)
T1 construct: domain: S1-RBD
Assay: […] row Mean of six measurements (StDev 0.79)

B1: P043.A.00095.D06 (protein sample ID 470) (antibody, V domains shown)
VH: QEQLEESGGDLVKPEGSLTLTCTASGFSFSSNYWICWVRQAPGKGLEWIGCIYIGSGDTYYASWAKGRFTISKTSSTTVTLQMTSLTAADTATYFCARSYTPGSYYNMNLWGPGTLVTVSS
VL: DVVMTQTPSSVSAAVGGTVTINCQASQQISNELSWYQQKSGQPPKLLIYDASDLASGVPSRFKGSGSGTEFTLTISDLESADAATYYCQSTGGASSDGNAFGGGTEVVVK
notes: also called S1 targeting antibody 470; anti-S1-antibody 470
koff: 7.68e-05 s⁻¹
